Results of unrelated studies side by side (data: NIAID ChemDB).

Common to all: tests on isolated targets; agent: HIV-1; target: Reverse transcriptase

Lines come from different laboratories, so protocols vary. An empty or dashed field is not shown. a–b is a range or a potency band. ICn: concentration for n% inhibition.

| smiles | strain or isolate | read by | changes | setting | read-out | result |
|---|---|---|---|---|---|---|
| Cc1cn([C@H]2CC[C@@H](COP(=O)(O)OP(=O)(O)OP(=O)(O)O)O2)c(=O)[nH]c1=O | - | RT activity | RT-Y181I | - | Ki | 0.07 µM |
| CCC1(c2ccc(CNc3cccc(F)c3)cc2)Oc2ccccc2-n2cccc2C1=O | - | nucleotide incorporation / radiometric | RT-V106A | - | IC50 | 1.5 µM |
| O=C(O)Cn1cnc2c(=O)[nH]c(NC(=O)OCc3ccccc3)nc21 | NNRTI-resistant | nucleotide incorporation / radiometric | L100I | - | Ki | 30 µM |
| Fc1cccc(F)c1C1SCc2nc3ccccc3n21 | - | nucleotide incorporation | - | - | IC50 | 7.3 µM |
| C[C@@H](NC(=S)Nc1nc2ccccc2s1)c1cccc2ccccc12 | - | - | - | - | IC50 | 0.44 µM |
| CCOc1cccc(C2(CC)Oc3ccccc3-n3cccc3C2=O)c1 | WT | nucleotide incorporation / radiometric | - | - | IC50 | 0.76 µM |
| COC(=O)c1ccc(C(=O)N2CCN(C(=O)c3cc(O)c(O)c(O)c3)CC2)cc1 | BH10 | ELISA / nucleotide incorporation | - | - | IC50 | >50 µM |
| O=C(/C=C/c1ncc(-c2ccccc2)cn1)Nc1cc(-c2ccc3c(c2)CCCC3)[nH]n1 | NL4-3 | RT activity / nucleotide incorporation / luminescence | Y181C | - | IC50 | 0.26 µM |
| CC(C)=CCN1Cc2cccc3[nH]c(=S)n(c23)C[C@@H]1C | RT-WT | RT activity | - | - | IC50 | 0.4 µM |
| CCOC(=O)Cc1csc(NC(=S)NC(CC)c2ccccc2)n1 | - | - | - | - | IC50 | 17.5 µM |
| CCN1c2ncc(CCOc3ccc(/C=C(\C)C(=O)O)c4ccccc34)cc2C(=O)Nc2c(C)cc(F)nc21 | - | nucleotide incorporation / radiometric | RT-V106A | - | IC50 | 0.1–1 µM |
| COc1ccc(Sc2nc(Cc3c(Cl)cccc3Cl)c(C)c(=O)[nH]2)cn1 | - | - | RT-K103N | - | IC50 | >400 µM |
| CCc1c([Se]c2ccccn2)n(COCc2ccccc2)c(=O)[nH]c1=O | RT-WT | RT activity | - | - | IC50 | 0.1 µM |
| Cc1cn([C@H]2C=C[C@@H](COP(=O)(O)OP(=O)(O)OP(=O)(O)O)O2)c(=O)[nH]c1=O | - | nucleotide incorporation / radiometric | RT-L74V | - | Ki | 0.31 µM |
| Cc1cc(S(N)(=O)=O)ccc1NC(=O)COc1ccc(Cl)cc1C(=O)c1cc(Cl)cc(C#N)c1 | - | fluorescence | RT-V106A | - | IC50 | 0.004 µM |
| COc1ccc(/C=C/NC(=O)Nc2ccc(Cl)cn2)cc1OC | - | nucleotide incorporation | RT-Y188L | - | Ki | >20 µM |
| CCC1(c2ccc(COc3cccnc3)cc2)Oc2ccccc2-n2cccc2C1=O | - | nucleotide incorporation / radiometric | RT-Y181I | - | IC50 | 40 µM |
| CCN1c2ncc(CCOc3ccc(/C(C)=C/C(=O)O)c4ccccc34)cc2C(=O)N(C)c2cccnc21 | - | nucleotide incorporation / radiometric | RT-K103N Y181C | - | IC50 | 0.1–1 µM |
| Cc1occc1C(=S)Nc1ccc(Cl)c(/C=N/OC(C)(C)C)c1 | - | - | RT-M184V | - | IC50 | 5.6 µM |
| Nc1ccn([C@@H]2CS[C@H](COP(=O)(O)OP(=O)(O)OP(=O)(O)O)O2)c(=O)n1 | - | nucleotide incorporation / radiometric | RT-L74V | - | Ki | 2.1 µM |
| CCN1c2ncc(COc3cccc(C(=O)OC)c3)cc2C(=O)N(C)c2ccc(Cl)nc21 | WT | nucleotide incorporation / radiometric | - | - | IC50 | <1 µM |
| Cc1cccc(NC(=S)N[C@@H](C)c2cccc3ccccc23)n1 | - | - | - | - | IC50 | >100 µM |
| CC(C)(C)OC(=O)Cn1cnc2c(Oc3ccccc3[N+](=O)[O-])nc(NC(=O)OCc3ccccc3)nc21 | NNRTI-resistant | nucleotide incorporation / radiometric | K103N | - | Ki | 331 µM |
| Cc1ccc2c(c1)n(CCNC(=S)Nc1ccc(Br)cn1)c(=O)c1cccn12 | - | nucleotide incorporation | RT-Y188L | - | Ki | 0.5 µM |
| CCN1c2ncc(CCOc3ccc(CC(C)C(=O)O)c4ccccc34)cc2C(=O)Nc2c(C)cc(Cl)nc21 | WT | nucleotide incorporation / radiometric | - | - | IC50 | <0.1 µM |
| Cc1cn([C@H]2C=C[C@@H](COP(=O)(O)OP(=O)(O)OP(=O)(O)O)O2)c(=O)[nH]c1=O | - | nucleotide incorporation / radiometric | RT-I132A | - | IC50 | 0.13 µM |
| Cc1cccc2sc(NC(=S)N[C@@H](C)c3cccc4ccccc34)nc12 | - | - | - | - | IC50 | >100 µM |
| Cc1c(Cc2c(Cl)cccc2Cl)nc(Sc2ccccc2)[nH]c1=O | - | - | Y181I | - | IC50 | >400 µM |
| CCN1c2ncc(CCOc3ccc(C(=O)O)c4c3CCCC4)cc2C(=O)N(C)c2cccnc21 | - | nucleotide incorporation / radiometric | RT-K103N Y181C | - | IC50 | 0.1–1 µM |
| CCc1c(Sc2ccccn2)n(COCc2ccccc2)c(=O)[nH]c1=O | RT-WT | RT activity | - | - | IC50 | 0.07 µM |
| CC(C)c1cc(C(C)C)c(S(=O)(=O)N2CCN(C(=O)c3cc(O)c(O)c(O)c3)CC2)c(C(C)C)c1 | BH10 | ELISA / nucleotide incorporation | - | - | IC50 | >50 µM |
| CCN1c2ncc(CO)cc2C(=O)N(C)c2ccc(F)nc21 | WT | nucleotide incorporation / radiometric | - | - | IC50 | <1 µM |
| CCN1c2ncc(CCOc3ccc(CCC(=O)O)c4ccccc34)cc2C(=O)N(C)c2ccc(C)nc21 | - | nucleotide incorporation / radiometric | RT-K103N Y181C | - | IC50 | 0.1–1 µM |
| CCC1(c2ccc(COc3ccccc3)cc2)Oc2ccccc2-n2cccc2C1=O | - | nucleotide incorporation / radiometric | RT-Y188L | - | IC50 | 2.3 µM |
| C/C=C/CSc1cc(NC(=S)c2ccsc2C)ccc1Cl | - | - | RT-E138K | - | IC50 | 3.8 µM |
| Cc1cc(C)cc([C@]23SCCN2C(=O)c2ccccc23)c1 | IIIB | ELISA | RT-K103N | - | IC50 | 10.6 µM |
| O=C(Nc1cc(-c2ccc3c(c2)CCCC3)[nH]n1)c1ccc(-c2cncnc2)s1 | NL4-3 | RT activity / nucleotide incorporation / luminescence | Y181C | - | IC50 | 0.32 µM |
| CCN1c2ncc(CCO)cc2C(=O)N(C)c2ccc(Cl)nc21 | WT | nucleotide incorporation / radiometric | - | - | IC50 | <1 µM |
| O=C1c2ccncc2C(=O)N1CCNC(=S)Nc1ccc(Br)cn1 | - | nucleotide incorporation | RT-K103N | - | Ki | >5 µM |
| Cc1cc(C)nc(NC(=S)N[C@@H](C)c2cccc3ccccc23)c1 | - | - | - | - | Ki | >100 µM |
| COc1ccc2c(c1)N(C(=O)OC(C)C)[C@@H](CSC)C(=S)N2 | - | scintillation proximity / radiometric | RT-M184V G190E | - | IC50 | >29 µM |
| CCN1c2ncc(CSc3ncccn3)cc2C(=O)N(C)c2ccc(Cl)nc21 | WT | nucleotide incorporation / radiometric | - | - | IC50 | <1 µM |
| CCC1(c2ccc(I)cc2)Oc2ccccc2-n2cccc2C1=O | - | nucleotide incorporation / radiometric | RT-L100I | - | IC50 | 1.8 µM |
| Nc1ccc(C(=O)N2CCN(C(=O)c3cc(O)c(O)c(O)c3)CC2)cc1 | BH10 | ELISA / nucleotide incorporation | - | - | IC50 | >50 µM |
| CCC1(c2ccc(COc3ccccc3Cl)cc2)Oc2ccccc2-n2cccc2C1=O | - | nucleotide incorporation / radiometric | RT-V106A | - | IC50 | 5 µM |
| Cc1cc(C)cc(C(=O)c2cc(Cl)ccc2OCCN2C(=O)NC(=O)C(C)C2C)c1 | - | RT activity | V106A | pseudotyped | Ki | >8.6 µM |
| CCC1(c2ccc(CNc3ccccc3)cc2)Oc2ccccc2-n2cccc2C1=O | WT | nucleotide incorporation / radiometric | - | - | IC50 | 0.09 µM |
| C[C@H](NC(=S)Nc1ccc(Br)cn1)c1cccc2ccccc12 | - | - | - | - | Ki | >100 µM |
| Cc1c(Cc2c(Cl)cccc2Cl)nc(Sc2ccc(C#N)cc2)[nH]c1=O | - | - | RT-K103N | - | IC50 | >400 µM |
| O=c1c2cccn2ccn1CCNC(=S)Nc1ccc(Br)cn1 | - | nucleotide incorporation | RT-L100I | - | Ki | 0.061 µM |
| CCN1c2ncc(COc3ccnc(C(F)(F)F)c3)cc2C(=O)N(C)c2ccc(Cl)nc21 | - | nucleotide incorporation / radiometric | RT-Y181C | - | IC50 | <1 µM |
| O=C1CCN(CCOc2ccc(Cl)cc2C(=O)c2cc(Cl)cc(Cl)c2)C(=O)N1 | - | RT activity | K103N + Y181C | pseudotyped | Ki | 5.8 µM |
| CC(C)(C)c1ccc(S(=O)(=O)N2CCC(NC(=O)c3cc(O)c(O)c(O)c3)CC2)cc1 | BH10 | ELISA / nucleotide incorporation | - | - | IC50 | >71.1 µM |
| Cc1c(Sc2ccccc2)n(COCCO)c(=O)[nH]c1=O | - | - | RT-V179D | - | IC50 | ~1 µM |
| C[C@@H](NC(=S)Nc1ccccn1)c1cccc2ccccc12 | - | - | - | - | IC50 | 1.21 µM |
| O=C(O)c1c[nH]c2ccc(Cl)cc2c1=O | - | nucleotide incorporation / radiometric | - | - | Ki | 5.3 µM |
| Cc1c(Cc2c(F)cccc2F)nc(Sc2ccc(Cl)cc2)[nH]c1=O | - | - | RT-K103N | - | IC50 | >400 µM |
| Cc1c(C(=O)N(C)Cc2cccnc2)[nH]c(C(N)=O)c1S(=O)(=O)c1ccccc1 | NL4-3 | RT activity / nucleotide incorporation / luminescence | Y181C | - | IC50 | 5.5 µM |
| Nc1ncnc2c1ncn2[C@@H]1O[C@H](COP(=O)(O)OP(=O)(O)OP(=O)(O)O)C[C@@H]1F | - | nucleotide incorporation / radiometric | RT-L74V | - | Ki | 9.5 µM |
| O=C(Nc1cc(-c2ccc3c(c2)CCCC3)[nH]n1)c1ncccn1 | NL4-3 | RT activity / nucleotide incorporation / luminescence | Y181C | - | IC50 | 0.61 µM |
| CCN1c2ncc(CCc3ccccc3)cc2C(=O)Nc2c1nc(Cl)c(Br)c2C | WT | nucleotide incorporation / radiometric | - | - | IC50 | >1 µM |
| O=C(Nc1nnc(-c2ccc3c(c2)CCCC3)o1)C1=COCCO1 | NL4-3 | RT activity / nucleotide incorporation / luminescence | K103N | - | IC50 | 2.5 µM |
| Nc1ncnc2c1ncn2CCOCP(=O)(O)OP(=O)(O)OP(=O)(O)O | - | nucleotide incorporation / radiometric | RT-T215Y | - | Ki | 0.26 µM |
| COc1ccccc1C(=O)N1CCC(NC(=O)c2cc(O)c(O)c(O)c2)CC1 | BH10 | ELISA / nucleotide incorporation | - | - | IC50 | 39.9 µM |
| CCN1c2ncc(CCOc3ccc(S(N)(=O)=O)c4ccccc34)cc2C(=O)N(C)c2cccnc21 | - | nucleotide incorporation / radiometric | RT-V106A | - | IC50 | 0.1–1 µM |

The last 9 rows once more:

smiles,strain or isolate,read by,changes,setting,read-out,result
Cc1c(Cc2c(F)cccc2F)nc(Sc2ccc(Cl)cc2)[nH]c1=O,-,-,RT-K103N,-,IC50,>400 µM
Cc1c(C(=O)N(C)Cc2cccnc2)[nH]c(C(N)=O)c1S(=O)(=O)c1ccccc1,NL4-3,RT activity / nucleotide incorporation / luminescence,Y181C,-,IC50,5.5 µM
Nc1ncnc2c1ncn2[C@@H]1O[C@H](COP(=O)(O)OP(=O)(O)OP(=O)(O)O)C[C@@H]1F,-,nucleotide incorporation / radiometric,RT-L74V,-,Ki,9.5 µM
O=C(Nc1cc(-c2ccc3c(c2)CCCC3)[nH]n1)c1ncccn1,NL4-3,RT activity / nucleotide incorporation / luminescence,Y181C,-,IC50,0.61 µM
CCN1c2ncc(CCc3ccccc3)cc2C(=O)Nc2c1nc(Cl)c(Br)c2C,WT,nucleotide incorporation / radiometric,-,-,IC50,>1 µM
O=C(Nc1nnc(-c2ccc3c(c2)CCCC3)o1)C1=COCCO1,NL4-3,RT activity / nucleotide incorporation / luminescence,K103N,-,IC50,2.5 µM
Nc1ncnc2c1ncn2CCOCP(=O)(O)OP(=O)(O)OP(=O)(O)O,-,nucleotide incorporation / radiometric,RT-T215Y,-,Ki,0.26 µM
COc1ccccc1C(=O)N1CCC(NC(=O)c2cc(O)c(O)c(O)c2)CC1,BH10,ELISA / nucleotide incorporation,-,-,IC50,39.9 µM
CCN1c2ncc(CCOc3ccc(S(N)(=O)=O)c4ccccc34)cc2C(=O)N(C)c2cccnc21,-,nucleotide incorporation / radiometric,RT-V106A,-,IC50,0.1–1 µM